Data as given in PubChem BioAssay AID624099 (ICCB-Longwood, 2012).
Here is one part, drawn at random, of about 21,000 deposited reagents. 497 of them (2.4%) were called active. 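Higher z means weaker E2 silencing; only reporter increases were scored, and knock-downs that hurt cell survival may mask genuine repressor factors.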 A number with no mark means an inactive call.

- Aim: 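Host factors E2 relies on to silence an HPV18 LCR reporter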 (primary screen)
- Cells: human C33A cervical carcinoma cells (HPV-negative) stably expressing BPV1 E2 and an HPV18 LCR luciferase reporter
- Reagent: siRNA pool against human genes, 40 nM
- Time to read-out: 72 h
- Measured: 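HPV18 LCR reporter light per well, converted to plate-wise z-scores that exclude control wells, and averaged over triplicate plates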
- Reading the numbers: mean z-score and z-score: higher = stronger reporter signal, weaker E2 silencing
- Rule for the call: 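Mean z ≥ 2 together with z ≥ 2 in two or more of the three replicates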

For PSENEN, what was measured?
mean z-score: 0.53; z-score, replicate A: 0.05; z-score, replicate B: 0.54; z-score, replicate C: 1.01

How did the screen score NDFIP2?
mean z-score: -1.59; z-score, replicate A: -1.54; z-score, replicate B: -1.62; z-score, replicate C: -1.62

How did the screen score ZC3H14?
mean z-score: 1.06; z-score, replicate A: 1.35; z-score, replicate B: 0.87; z-score, replicate C: 0.96

Which result is listed for ITPKA?
mean z-score: 1.14; z-score, replicate A: 1.37; z-score, replicate B: 0.87; z-score, replicate C: 1.17

What is on record for ZNF843?
mean z-score: 0.33; z-score, replicate A: 0.13; z-score, replicate B: 0.55; z-score, replicate C: 0.33

With FGF16, what does the deposit list?
mean z-score: 0.14; z-score, replicate A: 0.21; z-score, replicate B: 0.18; z-score, replicate C: 0.02

Which result is listed for FAM184A?
mean z-score: 0.32; z-score, replicate A: 0.6; z-score, replicate B: 0.42; z-score, replicate C: -0.07

What is on record for ZNF492?
mean z-score: -1.42; z-score, replicate A: -1.79; z-score, replicate B: -1.55; z-score, replicate C: -0.91

For TMEM31, what was measured?
mean z-score: -0.4; z-score, replicate A: -0.09; z-score, replicate B: -0.68; z-score, replicate C: -0.42

What did the screen give for THUMPD3?
mean z-score: -0.26; z-score, replicate A: -0.59; z-score, replicate B: -0.12; z-score, replicate C: -0.07

For FAM50B, what does the deposit list?
mean z-score: -0.87; z-score, replicate A: -1.12; z-score, replicate B: -0.89; z-score, replicate C: -0.61

For CDC42EP2, how do the results read?
mean z-score: -0.38; z-score, replicate A: -0.14; z-score, replicate B: -0.6; z-score, replicate C: -0.41

What is on record for ZC3H7B?
mean z-score: -0.17; z-score, replicate A: -0.36; z-score, replicate B: -0.35; z-score, replicate C: 0.21

With CRNKL1, how do the results read?
mean z-score: 1.78; z-score, replicate B: 1.89; z-score, replicate C: 1.66

Which result is listed for SVOP?
mean z-score: 0.68; z-score, replicate A: 0.67; z-score, replicate B: 0.64; z-score, replicate C: 0.72

What did the screen give for LOC401859 (retired record)?
mean z-score: -0.05; z-score, replicate A: 0.45; z-score, replicate B: -0.07; z-score, replicate C: -0.53

For SLC22A6, what does the deposit list?
mean z-score: -0.01; z-score, replicate A: 0.03; z-score, replicate B: 0.08; z-score, replicate C: -0.13

What did the screen give for LOC221875 (retired record)?
mean z-score: -0.15; z-score, replicate A: -0.32; z-score, replicate B: -0.18; z-score, replicate C: 0.04

What is on record for GRPEL1P3?
mean z-score: -1.1; z-score, replicate A: -1.27; z-score, replicate B: -0.72; z-score, replicate C: -1.32

How did the screen score MRPS11?
mean z-score: 0.47; z-score, replicate A: 0.57; z-score, replicate B: 0.29; z-score, replicate C: 0.54

Which result is listed for MMRN2?
mean z-score: -0.73; z-score, replicate A: -0.78; z-score, replicate B: -0.72; z-score, replicate C: -0.67
